“And” between values parts separate entries of the source, which are not always exact repeats. Identical values can stand only once. Ends that are not written are not given here.
System: Salmonella versus sRBCs
Assay: Selectivity index (HC50/GMMIC)
Settings: HC50 (sRBCs) / GMMIC (12 Salmonella isolates)

## FFFIRRIARLLRRIF-NH2 [2F-Kn2-5R-NH2]
  SI (selectivity index): 1 and 0.99

Reference: PMC8348142, “Antimicrobial Peptide Modifications against Clinically Isolated Antibiotic-Resistant Salmonella” (Molecules, 2021)
